Results deposited as PubChem BioAssay AID1259414 (Drosophila RNAi Screening Center, 2018).

Aim: 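Fly genes that alter Wolbachia amount inside host cells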 (primary screen)
Cells: Drosophila JW18 cells infected with Wolbachia
Reagents: long dsRNA against Drosophila genes, 0.25 µg dsRNA per well of a 384-well plate
Duration: 5 days
Challenge: cells persistently infected with Wolbachia before knock-down; no added drug
Detection: 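Automated imaging of bacterial rRNA staining divided by host cell count, reported as plate-normalised robust z-score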
Reading the numbers: Wolbachia per cell robust z: higher = more Wolbachia per host cell than the plate typical
Active means: 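Active if absolute robust z reaches 1.5 in two or more of three replicates, leaving out multi- or no-target dsRNAs, genes unexpressed in JW18 and A1 wells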
The deposit covers about 24,000 reagents; below is an unselected part of those with a known target gene and a result. Over the whole deposit, about 1,210 (5%) are marked active. 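Inactive calls also include excluded dsRNAs with several or no targets, genes unexpressed in JW18, and well A1, regardless of score.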 A number with no mark means an inactive call. A plus sign joins genes that one reagent is predicted to hit. No sequences are given here.

Knock-down of Capr [DRSC10346] resulted in: Wolbachia per cell robust z, rep 1 = -0.274; Wolbachia per cell robust z, rep 2 = 0.981; Wolbachia per cell robust z, rep 3 = 0.256.
Capr [DRSC26777] showed Wolbachia per cell robust z, rep 1 = 0.318; Wolbachia per cell robust z, rep 2 = -0.216; Wolbachia per cell robust z, rep 3 = -0.668.
After knock-down of Ctu2 [DRSC02024], the record shows Wolbachia per cell robust z, rep 1 = -0.762; Wolbachia per cell robust z, rep 2 = -0.23; Wolbachia per cell robust z, rep 3 = -0.567.
Ctu2 [DRSC29317] scored Wolbachia per cell robust z, rep 1 = -0.905; Wolbachia per cell robust z, rep 2 = 0.432; Wolbachia per cell robust z, rep 3 = 0.000697.
Cep164 [DRSC20163] showed Wolbachia per cell robust z, rep 1 = -2.25; Wolbachia per cell robust z, rep 2 = 0.136; Wolbachia per cell robust z, rep 3 = -0.602.
Uxt [DRSC01962] showed Wolbachia per cell robust z, rep 1 = -8.79 (active); Wolbachia per cell robust z, rep 2 = -3.06; Wolbachia per cell robust z, rep 3 = 1.08.
For CG33792 [DRSC38872], the entry reads Wolbachia per cell robust z, rep 1 = -0.215; Wolbachia per cell robust z, rep 2 = -1.31; Wolbachia per cell robust z, rep 3 = -2.55.
Silencing of Nelf-A [DRSC15903] came out at: Wolbachia per cell robust z, rep 1 = -1.12; Wolbachia per cell robust z, rep 2 = -0.0637; Wolbachia per cell robust z, rep 3 = 0.752.
For mRRF1 [DRSC10421] the deposit lists Wolbachia per cell robust z, rep 1 = 0.0133; Wolbachia per cell robust z, rep 2 = -0.176; Wolbachia per cell robust z, rep 3 = -0.157.
Depletion of AnxB9 [DRSC14111] gave: Wolbachia per cell robust z, rep 1 = -0.396; Wolbachia per cell robust z, rep 2 = 0.196; Wolbachia per cell robust z, rep 3 = 0.0915.
Silencing of AnxB9 [DRSC25715] gave: Wolbachia per cell robust z, rep 1 = -3.21; Wolbachia per cell robust z, rep 2 = 2.22; Wolbachia per cell robust z, rep 3 = 0.453.
AnxB9 [DRSC38940] scored Wolbachia per cell robust z, rep 1 = -3.04; Wolbachia per cell robust z, rep 2 = -0.879; Wolbachia per cell robust z, rep 3 = -1.27.
After knock-down of CG12862 [DRSC06202], the screen gave Wolbachia per cell robust z, rep 1 = 0.251; Wolbachia per cell robust z, rep 2 = -0.673; Wolbachia per cell robust z, rep 3 = 0.471.
Knock-down of ppk18 [DRSC02216] came out at: Wolbachia per cell robust z, rep 1 = 1.42; Wolbachia per cell robust z, rep 2 = 0.468; Wolbachia per cell robust z, rep 3 = 0.858.
Against ppk18 [DRSC02217], the values are Wolbachia per cell robust z, rep 1 = 1.08; Wolbachia per cell robust z, rep 2 = 0.174; Wolbachia per cell robust z, rep 3 = -0.0287.
Gnf1 [DRSC12351] scored Wolbachia per cell robust z, rep 1 = -0.107; Wolbachia per cell robust z, rep 2 = 0.799; Wolbachia per cell robust z, rep 3 = 0.457.
For Gnf1 [DRSC26682] the deposit lists Wolbachia per cell robust z, rep 1 = -0.52; Wolbachia per cell robust z, rep 2 = 0.334; Wolbachia per cell robust z, rep 3 = 0.0954.
Silencing of NimC1 [DRSC01879] gave: Wolbachia per cell robust z, rep 1 = 0.149; Wolbachia per cell robust z, rep 2 = -1.01; Wolbachia per cell robust z, rep 3 = -5.42.
Silencing of koko + Vti1b [DRSC16283] gave: Wolbachia per cell robust z, rep 1 = -7.75 (active); Wolbachia per cell robust z, rep 2 = 0.86; Wolbachia per cell robust z, rep 3 = -4.54.
With knock-down of koko + Vti1b [DRSC16284], the record shows Wolbachia per cell robust z, rep 1 = -0.00787; Wolbachia per cell robust z, rep 2 = -1.18; Wolbachia per cell robust z, rep 3 = 0.71.
With knock-down of chn [DRSC06086], the record shows Wolbachia per cell robust z, rep 1 = 1.29 (active); Wolbachia per cell robust z, rep 2 = 2.21; Wolbachia per cell robust z, rep 3 = 2.92.
Depletion of chn [DRSC29342] gave: Wolbachia per cell robust z, rep 1 = 0.21; Wolbachia per cell robust z, rep 2 = 0.71; Wolbachia per cell robust z, rep 3 = -3.51.
Silencing of CG10587 [DRSC11627] came out at: Wolbachia per cell robust z, rep 1 = 1.11; Wolbachia per cell robust z, rep 2 = -0.0335; Wolbachia per cell robust z, rep 3 = 1.29.
With knock-down of CG32022 [DRSC09678] the results were Wolbachia per cell robust z, rep 1 = 0.643; Wolbachia per cell robust z, rep 2 = 0.632; Wolbachia per cell robust z, rep 3 = 0.859.

Entries listed above called active, once more:
Uxt [DRSC01962] | Wolbachia per cell robust z, rep 1 = -8.79 (active); Wolbachia per cell robust z, rep 2 = -3.06; Wolbachia per cell robust z, rep 3 = 1.08
koko + Vti1b [DRSC16283] | Wolbachia per cell robust z, rep 1 = -7.75 (active); Wolbachia per cell robust z, rep 2 = 0.86; Wolbachia per cell robust z, rep 3 = -4.54
chn [DRSC06086] | Wolbachia per cell robust z, rep 1 = 1.29 (active); Wolbachia per cell robust z, rep 2 = 2.21; Wolbachia per cell robust z, rep 3 = 2.92
